## Mutational interference map of HIV-1 RNA dimerization

The measurements come from Ye et al. 2022 (doi:10.1038/s41594-022-00746-2).

The 5' region of HIV-1 NL4-3 RNA (positions 1-437):
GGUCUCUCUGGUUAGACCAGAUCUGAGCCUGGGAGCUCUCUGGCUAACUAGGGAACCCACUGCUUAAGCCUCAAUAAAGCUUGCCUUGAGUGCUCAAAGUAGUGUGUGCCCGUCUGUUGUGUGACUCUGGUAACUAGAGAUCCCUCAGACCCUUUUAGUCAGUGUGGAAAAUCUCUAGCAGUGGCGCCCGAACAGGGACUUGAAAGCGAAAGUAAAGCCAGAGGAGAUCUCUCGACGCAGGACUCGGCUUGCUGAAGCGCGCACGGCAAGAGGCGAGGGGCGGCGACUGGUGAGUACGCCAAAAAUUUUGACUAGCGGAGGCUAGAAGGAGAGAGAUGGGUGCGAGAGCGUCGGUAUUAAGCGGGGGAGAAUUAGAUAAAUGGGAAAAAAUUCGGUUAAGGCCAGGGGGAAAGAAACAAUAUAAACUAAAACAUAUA

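Randomly mutated transcripts starting with one, two or three G (1G, 2G, 3G), capped or uncapped, were folded for 30 min at 37 °C. High salt was 300 mM KCl and 5 mM MgCl2, low salt 40 mM KCl and 0.1 mM MgCl2; monomer and dimer were parted on a native gel. Mutation frequencies in the two bands give Kdimer.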

Values are log2 Kdimer, the median over the changes at each position: higher means that changes there hinder dimer formation, below 0 that they favour it.
One numbering serves 1G, 2G and 3G.
A position is written with its base.

position,domain,1G capped low-salt,2G capped high-salt,2G uncapped high-salt
A192,PBS,0.39,-0.04,0.12
C193,PBS,-0.54,0.23,-0.01
A194,PBS,0.38,0.07,0.20
G195,PBS,0.38,0.63,0.60
G196,PBS,0.34,0.50,0.61
G197,PBS,0.32,0.30,0.47
A198,PBS,-0.11,0.20,0.17
C199,PBS,0.00,-0.19,0.04
U200,PBS,0.05,0.19,0.09
U201,PBS,0.03,0.13,0.07
G202,PBS,-0.20,-0.24,-0.19
A203,PBS,0.67,0.53,0.59
A204,PBS,-0.06,0.25,0.18
A205,PBS,-0.03,0.39,0.17
G206,PBS,-0.65,-0.62,-0.38
C207,PBS,-0.39,-0.28,-0.06
G208,PBS,-0.33,-0.09,-0.02
A209,PBS,0.76,1.17,1.15
A210,PBS,-0.04,0.10,0.12
A211,PBS,-0.31,-0.13,-0.35
G212,PBS,-0.57,-0.56,-0.46
U213,PBS,-0.61,-0.35,-0.23
A214,PBS,0.02,0.09,0.06
A215,PBS,-0.13,-0.11,0.00
A216,PBS,-0.43,-0.31,-0.12
G217,antiPAS,-1.06,-0.82,-0.64
C218,antiPAS,-0.95,-0.61,-0.40
C219,antiPAS,0.46,0.23,0.51
A220,antiPAS,-0.05,0.17,0.13
G221,antiPAS,0.26,-0.13,-0.15
A222,antiPAS,0.45,-0.10,0.21
G223,antiPAS,0.46,0.08,0.13
G224,none,-0.18,0.18,-0.25
A225,none,-0.39,-0.06,0.00
G226,none,-0.57,-0.33,-0.24
A227,CU,1.10,1.49,1.18
U228,CU,0.17,0.04,0.13
C229,CU,0.24,0.41,0.36
U230,CU,0.62,0.78,0.66
C231,CU,-0.05,0.31,0.32
U232,CU,0.71,0.29,0.32
C233,CU,0.82,0.54,0.80
G234,none,0.05,0.81,0.52
A235,none,-1.47,-0.74,-0.52
C236,none,1.73,2.63,2.73
G237,none,0.75,1.11,0.72
C238,none,2.14,2.86,2.76
A239,none,-0.36,-0.18,-0.06
G240,none,-0.41,-0.21,-0.11
G241,none,-0.60,-0.09,-0.03
A242,none,1.32,0.72,0.98
C243,SL1,1.15,0.74,1.05
U244,SL1,1.48,0.57,0.89

The opening 2 entries, copied out:

- A192 (domain PBS): 1G capped low-salt 0.39; 2G capped high-salt -0.04; 2G uncapped high-salt 0.12
- C193 (domain PBS): 1G capped low-salt -0.54; 2G capped high-salt 0.23; 2G uncapped high-salt -0.01